What was measured:
[1] = Cytotoxicity against HIV2 ROD infected human MT4 cells by MTT assay; assay type: cell-based; details: MT4 cells infected with HIV-2 ROD
Outline: (§1)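 MT-4 cells (3 × 10^4 per well) were cultured in microdilution trays with various concentrations of compound, then incubated 5 days at 37 °C, and viable cell number was read by MTT.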

[2] = Cytotoxicity against HIV1 3B-infected human MT4 cells by MTT assay; assay type: cell-based; details: MT4 cells infected with HIV-1 3B; outline: as §1

COc1cc(/C=C/C(=O)CC(=O)/C=C/c2ccc(O)c(OC)c2)ccc1O [CURCUMIN]
CC50 [1]: > 37 nM
CC50 [2]: > 37 nM
